In US10059741B2 (priority 2015, dated 2018):
Values joined by “and” are separate entries in the source; they are usually repeats but may differ in a detail not shown here. Equal values may be shown once. Read-outs that look alike come from different tables or passages of the source.

Experiments:
[1] = test system: H1N1 California/07/2009; format: cell-based, influenza A virus
[2] = test system: H3N2 Perth/16/2009; format: cell-based, influenza A virus
[3] = test system: H1N1 California/07/2009; format: cell-based, influenza A virus; remark: listed apart in the source
[4] = test system: H3N2 Perth/16/2009; format: cell-based, influenza A virus; remark: listed apart in the source
[5] = in vitro; details: dog
[6] = test system: influenza virus, various viral strains; format: cell-based
[7] = read-out: EC50 (μM) H1N1 California/07/2009
[8] = CC50 (μM) H1N1 California/07/2009, Cell cytotoxicity (CC), run with H1N1 California/07/2009
[9] = CC50 (μM) H3N2 Perth/16/2009, Cell cytotoxicity (CC), run with H3N2 Perth/16/2009
[10] = CC50, MDCK cells, run with Influenza A H1N1 California/07/2009, Neutral Red
[11] = CC50, MDCK cells, run with Influenza A H1N1 California/07/2009, Visual
[12] = Cytopathic effect/toxicity (Visual), MDCK cells, read-out: EC50 (μM) H1N1 California/07/2009
[13] = Cytopathic effect/toxicity (Visual), MDCK cells
[14] = Cytopathic effect/toxicity (Neutral red), MDCK cells, read-out: EC50 (μM) H1N1 California/07/2009
[15] = Influenza A H1N1 California/07/2009, Neutral Red, read-out: EC50
[16] = Cytopathic effect/toxicity (Neutral red), MDCK cells
[17] = CC50, MDCK cells, run with Influenza A H1N1 California/07/2009, VYR/Neutral Red
[18] = CC50, MDCK cells, run with Influenza A H3N2 Perth/16/2009, Neutral Red
[19] = CC50, MDCK cells, run with Influenza A H3N2 Perth/16/2009, VYR/Neutral Red

SMILES | EC50 [1, 7] [µM] | EC50 [2] [µM] | EC50 [3, 7] [µM] | EC50 [4] [µM] | CC50 [5, 8] [µM] | CC50 [5, 9] [µM] | CC50 [5, 10] [µM] | CC50 [5, 11] [µM] | EC50 [1, 12] [µM] | EC50 [2, 13] [µM] | EC50 [3, 14] [µM] | EC50 [4, 16] [µM] | CC50 [5, 17] [µM] | CC50 [5, 18] [µM] | CC50 [5, 19] [µM] | further results
CCCC[C@H](NC(C)=O)C(=O)N[C@@H](CC(=O)O)C(=O)N[C@H](C(=O)N[C@@H](CC(N)=O)C(=O)N[C@@]1(C)CCCC=CCCC[C@@](C)(C(=O)N[C@@H](CC(C)C)C(=O)N[C@@H](C)C(=O)N[C@H](C(=O)N[C@@H](C)C(=O)N[C@@H](C)C(=O)N[C@@H](CCC(N)=O)C(=O)N[C@@H](C)C(=O)N[C@@H](C)C(N)=O)C(C)C)NC(=O)[C@H](CC(C)C)NC(=O)[C@H](CC(C)C)NC(=O)[C@H]([C@@H](C)O)NC1=O)C(C)C [SP-8] | 10 to 25 | 25 to 50 | 10 to 25 | 25 to 50 | > 100 | > 100 | > 100 | > 100 |  |  |  |  |  |  |  | EC50 ([3]; read-out: EC50): 19 µM and 38 µM
CCCC[C@H](NC(C)=O)C(=O)N[C@@H](CC(=O)O)C(=O)N[C@H](C(=O)N[C@@H](CC(N)=O)C(=O)N[C@@]1(C)CCCC=CCCC[C@@](C)(C(=O)N[C@@H](CC(C)C)C(=O)N[C@@H](C)C(=O)N[C@H](C(=O)N[C@@H](C)C(=O)N[C@@H](C)C(=O)N[C@@H](C)C(=O)N[C@@H](C)C(=O)N[C@@H](C)C(N)=O)C(C)C)NC(=O)[C@H](CC(C)C)NC(=O)[C@H](CC(C)C)NC(=O)[C@H]([C@@H](C)O)NC1=O)C(C)C [SP-9] |  |  |  |  | > 100 | > 100 | > 100 | > 100 | 10 to 25 | 25 to 50 | 10 to 25 | 25 to 50 |  |  |  | EC50 [3, 15]: 22 µM and 41 µM
CCCC[C@H](NC(C)=O)C(=O)N[C@@H](CC(=O)O)C(=O)N[C@H](C(=O)N[C@@H](CC(N)=O)C(=O)N[C@@]1(C)CCCC=CCCC[C@@](C)(C(=O)N[C@@H](CC(C)C)C(=O)N[C@@H](C)C(=O)N[C@H](C(=O)N[C@@H](CO)C(=O)N[C@@H](C)C(=O)N[C@@H](CCC(N)=O)C(=O)N[C@@H](C)C(=O)N[C@@H](C)C(N)=O)C(C)C)NC(=O)[C@H](CC(C)C)NC(=O)[C@H](CC(C)C)NC(=O)[C@H]([C@@H](C)O)NC1=O)C(C)C [SP-10] | 25 to 50 | 25 to 50 | 25 to 50 | 25 to 50 | > 100 | > 100 | > 100 | > 100 |  |  |  |  |  |  |  | EC50 ([1]; read-out: EC50): 32 µM; EC50 ([3]; read-out: EC50): 35 µM and 32 µM
CCCC[C@H](NC(C)=O)C(=O)N[C@@H](CC(=O)O)C(=O)N[C@H](C(=O)N[C@@H](CC(N)=O)C(=O)N[C@@]1(C)CCCC=CCCC[C@@](C)(C(=O)N[C@@H](CC(C)C)C(=O)N[C@@H](C)C(=O)N[C@H](C(=O)N[C@@H](CCC(N)=O)C(=O)N[C@@H](C)C(=O)N[C@@H](CCC(N)=O)C(=O)N[C@@H](C)C(=O)N[C@@H](C)C(N)=O)C(C)C)NC(=O)[C@H](CC(C)C)NC(=O)[C@H](CC(C)C)NC(=O)[C@H]([C@@H](C)O)NC1=O)C(C)C [SP-11] | 1.5 to 10 | 10 to 25 | 1.5 to 10 | 10 to 25 | > 100 | > 100 | > 100 | > 100 |  |  |  |  | > 100 | > 100 | > 100 | EC90 [6]: 21 µM and 26 µM
CCCC[C@H](NC(C)=O)C(=O)N[C@@H](CC(=O)O)C(=O)N[C@H](C(=O)N[C@@H](CC(N)=O)C(=O)N[C@@]1(C)CCCC=CCCC[C@@](C)(C(=O)N[C@@H](CC(C)C)C(=O)N[C@@H](C)C(=O)N[C@H](C(=O)N[C@@H](CCC(=O)O)C(=O)N[C@@H](C)C(=O)N[C@@H](CCC(N)=O)C(=O)N[C@@H](C)C(=O)N[C@@H](C)C(N)=O)C(C)C)NC(=O)[C@H](CC(C)C)NC(=O)[C@H](CC(C)C)NC(=O)[C@H]([C@@H](C)O)NC1=O)C(C)C [SP-12] | 1.5 to 10 | 10 to 25 | 1.5 to 10 | 10 to 25 | > 100 | > 100 | > 100 | > 100 |  |  |  |  | > 100 | > 100 | > 100 | 
CCCC[C@H](NC(C)=O)C(=O)N[C@@H](CC(=O)O)C(=O)N[C@H](C(=O)N[C@@H](CC(N)=O)C(=O)N[C@@]1(C)CCCC=CCCC[C@@](C)(C(=O)N[C@@H](CC(C)C)C(=O)N[C@@H](C)C(=O)N[C@H](C(=O)N[C@@H](CO)C(=O)N[C@@H](C)C(=O)N[C@@H](C)C(=O)N[C@@H](C)C(=O)N[C@@H](C)C(N)=O)C(C)C)NC(=O)[C@H](CC(C)C)NC(=O)[C@H](CC(C)C)NC(=O)[C@H]([C@@H](C)O)NC1=O)C(C)C [SP-13] |  |  |  |  | > 100 | > 100 | > 100 | > 100 | 25 to 50 | > 50 | 25 to 50 | > 50 |  |  |  | 
CCCC[C@H](NC(C)=O)C(=O)N[C@@H](CC(=O)O)C(=O)N[C@H](C(=O)N[C@@H](CC(N)=O)C(=O)N[C@@]1(C)CCCC=CCCC[C@@](C)(C(=O)N[C@@H](CC(C)C)C(=O)N[C@@H](C)C(=O)N[C@H](C(=O)N[C@@H](CCC(N)=O)C(=O)N[C@@H](C)C(=O)N[C@@H](C)C(=O)N[C@@H](C)C(=O)N[C@@H](C)C(N)=O)C(C)C)NC(=O)[C@H](CC(C)C)NC(=O)[C@H](CC(C)C)NC(=O)[C@H]([C@@H](C)O)NC1=O)C(C)C [SP-14] |  |  |  |  | > 100 | > 100 | > 100 | > 100 | 1.5 to 10 | 25 to 50 | 1.5 to 10 | 25 to 50 | > 100 | > 100 | > 100 | EC90 ([6]; Influenza A H1N1 California/07/2009, VYR/Neutral Red): 29 µM; EC90 ([6]; Influenza A H3N2 Perth/16/2009, VYR/Neutral Red): 100 µM
CCCC[C@H](NC(C)=O)C(=O)N[C@@H](CC(=O)O)C(=O)N[C@H](C(=O)N[C@@H](CC(N)=O)C(=O)N[C@@]1(C)CCCC=CCCC[C@@](C)(C(=O)N[C@@H](CC(C)C)C(=O)N[C@@H](C)C(=O)N[C@H](C(=O)N[C@@H](CCC(=O)O)C(=O)N[C@@H](C)C(=O)N[C@@H](C)C(=O)N[C@@H](C)C(=O)N[C@@H](C)C(N)=O)C(C)C)NC(=O)[C@H](CC(C)C)NC(=O)[C@H](CC(C)C)NC(=O)[C@H]([C@@H](C)O)NC1=O)C(C)C [SP-15] |  |  |  |  | > 100 | > 100 | > 100 | > 100 | 25 to 50 | 25 to 50 | 25 to 50 | 25 to 50 |  |  |  | EC50 ([1]; Influenza A H1N1 California/07/2009, Visual, read-out: EC50): 32 µM; EC50 [3, 15]: 28 µM and 31 µM
